{
  "source": "paper doi:10.1101/2025.02.13.638143v1",
  "test_system": "CNc1ccccc1C(=O)O[C@@H]1[C@@H]2OP(=O)(O)OC[C@H]3O[C@@H](n4cnc5c(=O)[nH]c(N)nc54)[C@H](O)[C@@H]3OP(=O)(O)OC[C@H]2O[C@H]1n1cnc2c(=O)[nH]c(N)nc21",
  "assay": "purified protein",
  "conditions": "pH 8.0; 37.0 °C",
  "data": [
    {"substance": "(Vibrio cholerae O1 biovar El Tor str. N16961)", "values": [
      {"measurement": "Km", "result": "11 ± 3", "unit": "µM"}
    ]}
  ]
}
